# PubChem BioAssay AID1259414, Drosophila RNAi Screening Center – 2018
# Test: 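Genome-wide screen for host control of endosymbiont load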 (primary screen)
# Cell system: Drosophila JW18 cells infected with Wolbachia
# Knock-down reagent: long dsRNA against Drosophila genes, 0.25 µg dsRNA per well of a 384-well plate
# Timing: 5 days
# Treatment: cells persistently infected with Wolbachia before knock-down; no added drug
# Measurement: 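Automated imaging of bacterial rRNA staining divided by host cell count, reported as plate-normalised robust z-score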
# Scale: Wolbachia per cell robust z: higher = more Wolbachia per host cell than the plate typical
# Call rule: 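Hit when robust z is 1.5 or more, or -1.5 or less, in at least two of three replicates; excludes dsRNAs with several or no targets, genes not expressed in JW18 and well A1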
# In all, the deposit lists about 24,000 reagents; this is an unselected part of those with a known target gene and a result. Of all reagents, about 1,210 (5%) were called active. 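Inactive calls also include excluded dsRNAs with several or no targets, genes unexpressed in JW18, and well A1, regardless of score.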 A number with no mark means an inactive call. Names joined by + are all predicted targets of the reagent.
gene,dsRNA,"Wolbachia per cell robust z, rep 1","Wolbachia per cell robust z, rep 2","Wolbachia per cell robust z, rep 3"
Or83c (GeneID 40744),DRSC12359,0.264,-0.494,0.426
sigmar (GeneID 37751),DRSC04449,-1.92 (active),-0.883,-2.03
CG8389 (GeneID 36764),DRSC07158,0.572,1.23,-1.32
CG8389 (GeneID 36764),DRSC22855,-0.0231,0.403,1.28
CG8389 (GeneID 36764),DRSC28233,-0.959,0.782,-0.91
yata (GeneID 43508),DRSC15408,0.173,0.628,0.494
vvl (GeneID 38752),DRSC11409,-1.39,-1.92,-0.241
vvl (GeneID 38752),DRSC26681,0.916,1.49,0.403
vvl (GeneID 38752),DRSC41378,0.53,-1.99,-1.59
CG15347 (GeneID 31779),DRSC18031,0.319,0.792,0.717
nis (GeneID 33337),DRSC00290,-6.43,-3.3,-0.884
CG17931 + CG42446,DRSC28824,0.755,0.688,0.105
SC35 (GeneID 53444),DRSC03425,0.16,-0.514,-0.275
SC35 (GeneID 53444),DRSC25427,-0.782,0.437,0.546
SC35 (GeneID 53444),DRSC27081,-0.0238,-0.797,0.326
SC35 (GeneID 53444),DRSC39081,0.401,-1.26,2.21
CG31624 (GeneID 35393),DRSC02617,-1.49,0.749,0.656
CG3434 (GeneID 39098),DRSC10365,-6.82,-0.688,0.0582
Tsp42Ee (GeneID 35614),DRSC05947,-0.673,0.45,-0.719
Tsp42Ee (GeneID 35614),DRSC29024,-0.355,0.286,0.125
dpr16 (GeneID 40619),DRSC12217,-0.534,0.728,1.11
dpr16 (GeneID 40619),DRSC12249,-0.221,0.237,0.642
CG33263 (GeneID 2768952),DRSC10108,0.668,-1.06,0.462
CG8630 (GeneID 41629),DRSC16441,0.463,1.29,1.86
CG8630 (GeneID 41629),DRSC24081,0.0308,-0.213,1.27
ltl (GeneID 38845),DRSC10206,-0.65,0.295,-1.67
ltl (GeneID 38845),DRSC10870,-0.0684,-2.32,-0.764
CR10032 (GeneID 40877),DRSC12499,0.773,0.214,-0.486
CR10032 (GeneID 40877),DRSC28183,0.606,0.749,0.557
CG14795 (GeneID 31109),DRSC18513,0.715,1.01,1.07
CG14795 (GeneID 31109),DRSC26338,-1.36,-0.244,-0.638
CG14881 (GeneID 41990),DRSC15005,0.226,-0.374,-1.64
CG14881 (GeneID 41990),DRSC25898,-0.82,-0.522,-0.301
CG11369 (GeneID 31675),DRSC17779,-0.0541,-0.998,-0.972
tefu (GeneID 41839),DRSC16060,-0.479,-0.1,-2.66
Ltn1 (GeneID 40127),DRSC11056,-0.68,-1.92,-0.225
Ltn1 (GeneID 40127),DRSC11058,-0.151,0.475,-1.27
rumi (GeneID 326122),DRSC15177,-2.43 (active),-2.39,-0.776
rumi (GeneID 326122),DRSC29617,0.0376,-2,0.776
CG32204 (GeneID 317913),DRSC09574,0.327,-3.53,-0.232
CG32204 (GeneID 317913),DRSC23663,-0.989,1.96,-0.478
CG13245 (GeneID 50456),DRSC02243,-0.488,0.0861,0.739
CG1428 (GeneID 35433),DRSC03708,-0.0936,-5.96,0.0355
l(1)G0469 (GeneID 32371),DRSC19412,-0.837,0.767,1.04
l(1)G0469 (GeneID 32371),DRSC19462,-0.447 (active),-1.73,-4.29
ms(3)76Ba (GeneID 40109),DRSC10091,-0.243,0.643,-0.0796
smal (GeneID 5740323),DRSC02318,-0.65,0.0717,-0.236
smal (GeneID 5740323),DRSC02319,-1.72,0.545,-0.11
smal (GeneID 5740323),DRSC02320,0.0748,-0.144,-0.575
smal (GeneID 5740323),DRSC02504,-0.633,1.61,-0.77
smal (GeneID 5740323),DRSC22866,-0.644,-0.598,-2.86
smal (GeneID 5740323),DRSC26352,0.158,-0.00938,-1.48
CG32756 (GeneID 318193),DRSC23271,0.421,-0.634,0.387
CG32756 (GeneID 318193),DRSC25978,-1.51 (active),-0.496,-1.53
drosha (GeneID 35747),DRSC07607,1.32,0.0102,1.79
Tmem18 + DUBAI,DRSC05344,-0.666,-0.488,-1.51
CG11007 (GeneID 37249),DRSC06023,0.217,0.231,0.175
Fie (GeneID 38452),DRSC08158,-3.45,-6.48,-5.86
CG31642 (GeneID 326149),DRSC02919,-3,-0.0239,0.124
CG31642 (GeneID 326149),DRSC26391,-0.0751,0.222,0.805
Kank (GeneID 36668),DRSC05513,-1.04,0.444,-0.0552
Kank (GeneID 36668),DRSC05933,0.906,-0.314,0.692
CG18268 (GeneID 40923),DRSC41312,0.477,0.91,-1.93
CG5906 (GeneID 39343),DRSC10557,1.07,0.315,0.217
CG11334 (GeneID 43713),DRSC14066,0.0999,-6.49,1.35
CG11334 (GeneID 43713),DRSC14302,-3.95,-1,-1.25
Unr (GeneID 38963),DRSC10761,0.265,-1.02,0.828
Unr (GeneID 38963),DRSC22959,0.656,1.13,-0.236
Unr (GeneID 38963),DRSC25400,-1.25,1.21,0.829
Unr (GeneID 38963),DRSC26920,-2.56 (active),-0.757,-1.77
